Measured values taken from paper PMC5016661 (The Journal of Biological Chemistry, 2016).

Target: the molecule itself
Assay: atomic force microscopy (high speed AFM)

B1: FraC V8C/K69C, oxidised (natural protein)
chain: ADVAGACIDGAGLGFDVLKTVLEALGNVKRKIAVGIDNESGKTWTAMNTYFRSGTSDIVLPHKVAHGCALLYNGQKNRGPVATGVVGVIAYSMSDGNTLAVLFSVPYDYNWYSNWWNVRVYKGQKRADQRMYEELYYHRSPFRGDNGWHSRGLGYGLKSRGFMNSSGHAILEIHVTKA
Does B1 bind?
Result: binds
